Compound potency records, mixed from different reports. Data source: NIAID ChemDB in PubChem.

All rows: target-level tests; species: HIV-1; target: Reverse transcriptase; read-out: IC50

Neighbouring rows are from separate reports.

{"compound": "Cc1cn(C2CC(N=[N+]=[N-])C(COC(C(=O)O)P(=O)(O)O)O2)c(=O)[nH]c1=O", "method": "nucleotide incorporation / radiometric", "value": "89 µg/mL"}
{"compound": "O=C(CSc1nnc(Br)n1-c1ccc(C2CC2)c2ccccc12)Nc1ccc(C(=O)N[C@@H](Cc2ccc(O)cc2)C(=O)O)cc1Cl", "method": "nucleotide incorporation / radiometric", "value": "<0.05 µM"}
{"compound": "Cc1cc(N2C(=O)CSC2c2c(F)cccc2F)nc(C)n1", "method": "absorbance", "value": "<100 µg/mL"}
{"compound": "Cc1cc(C2CC2)cc(Cl)c1-n1c(Br)nnc1SCC(=O)Nc1ccc(C(=O)O)cc1Cl", "changes": "RT-Y188L", "method": "nucleotide incorporation / radiometric", "value": ">0.1 µM"}
{"compound": "Cc1cc(-c2ccccc2)nc(N2C(=O)CSC2c2c(Cl)cccc2Cl)n1", "method": "absorbance", "value": "~100 µg/mL"}
{"compound": "Cc1cc(C(=O)O)ccc1NC(=O)CSc1nnc(C(F)F)n1-c1ccc(C)c2c1CCCC2", "changes": "RT-Y188L", "method": "nucleotide incorporation / radiometric", "value": ">0.1 µM"}
{"compound": "C/C=C/CSc1cc(NC(=S)c2ccoc2C)ccc1Cl", "method": "nucleotide incorporation", "value": "0.118 µM"}
{"compound": "CC(C)=CCOc1cc(NC(=S)c2ccsc2C)ccc1Cl", "value": "0.2 µM"}
{"compound": "COc1c(C(=O)c2c[nH]c(-c3nc4ccccc4[nH]3)c2)c(O)c(OC)c2occc12", "method": "scintillation proximity / radiometric", "value": "34.12 µM"}
{"compound": "Cc1ccccc1NC(=O)CSc1ncnn1-c1ccc(Cl)cc1Cl", "method": "absorbance", "value": ">471 µM"}
{"compound": "CC[C@H]1C(=O)Nc2ccc(F)cc2N1C(=O)OC(C)C", "changes": "RT-W229F", "method": "radiometric", "value": "0.08 µM"}
{"compound": "Cc1cc(S(N)(=O)=O)ccc1NC(=O)COc1ccc(Cl)cc1C(=O)c1cc(F)cc(C(F)(F)F)c1", "strain": "IIIB", "method": "fluorescence", "value": "0.003 µM"}
{"compound": "CCCCC#CC1(C(F)(F)F)OC(=O)Nc2ccc(N)cc21", "value": "1.506 µM"}
{"compound": "CC(C)=CCN1Cc2cccc3[nH]c(=O)n(c23)CC1C", "method": "ELISA", "value": "0.16 µM"}
{"compound": "CC(C)Nc1nc(Nc2ccc(C#N)cc2F)nc(Oc2ccc3cccc(Br)c3c2)n1", "method": "RT activity / fluorescence", "value": "9.49 µM"}
{"compound": "CCN1c2ncc(CCOc3ccc(NC(=O)c4ccc(C(=O)O)cc4)cc3C)cc2C(=O)N(C)c2cccnc21", "strain": "IIIB", "method": "nucleotide incorporation / radiometric", "value": "<0.05 µM"}
{"compound": "CC(C)=CCOc1cc(NC(=S)c2ccsc2C)ccc1Cl", "method": "nucleotide incorporation", "value": "0.054 µM"}
{"compound": "CCN1c2ncc(CCOc3ccc(C(=O)N=c4ccn(O)cc4)cc3C)cc2C(=O)N(C)c2cccnc21", "strain": "IIIB", "changes": "RT-K103N Y181C", "method": "nucleotide incorporation / radiometric", "value": "<0.05 µM"}
{"compound": "O=C(CCCCC(=O)Nc1ccc(Br)cc1C(=O)O)Nc1ccccc1", "value": ">100 µg/mL"}
{"compound": "CC1=C(C(=O)Nc2ccc(Cl)c(C(=O)OC(C)C)c2)SCCO1", "method": "nucleotide incorporation", "value": "0.18 µM"}
{"compound": "Nc1ncnc2c1ncn2[C@@H]1C[C@H](COP(=O)(O)OP(=O)(O)OP(=O)(O)O)C2CC21", "method": "nucleotide incorporation / radiometric", "value": "36.39 µg/mL"}
{"compound": "CCN1c2ncc(CCOc3ccc(Nc4ccc(C(=O)O)cc4)cc3C)cc2C(=O)N(C)c2cccnc21", "strain": "IIIB", "changes": "RT-K103N Y181C", "method": "nucleotide incorporation / radiometric", "value": "<0.05 µM"}
{"compound": "Cc1cc(N2C(=O)CSC2c2c(F)cccc2Cl)nc(C)n1", "method": "absorbance", "value": "~100 µg/mL"}
{"compound": "Cc1cn([C@H]2CC[C@@H](COP(=O)(O)OP(=O)(O)OP(=O)(O)O)O2)c(=O)[nH]c1=O", "strain": "LAV", "value": "0.0088 µM"}
{"compound": "CCCNc1nc(Nc2ccc(C#N)cc2F)nc(Oc2ccc(C)cc2)n1", "method": "RT activity / fluorescence", "value": "4.35 µM"}
{"compound": "O=C1CC2c3cccn3S(=O)(=O)c3ccccc3N12", "strain": "IIIB", "method": "RT activity", "value": "17 µM"}
{"compound": "CCOCn1c(Cc2ccccc2)c(C(C)C)c(=O)[nH]c1=O", "method": "radiometric", "value": "0.122 µM"}
{"compound": "CCc1ccc(-n2c(SCC(=O)Nc3ccc(C(=O)O)cc3Cl)nnc2C(F)F)c2ccccc12", "method": "nucleotide incorporation / radiometric", "value": "<0.05 µM"}
{"compound": "O=C(COCC(=O)Nc1ccc(Br)cc1C(=O)O)Nc1ccc(Br)cc1C(=O)O", "value": ">100 µg/mL"}
{"compound": "CCCCC#CC1(C(F)(F)F)OC(=O)Nc2ccc([N+](=O)[O-])cc21", "value": "0.304 µM"}
{"compound": "CC1(C)Oc2ccc3ccc(=O)oc3c2[C@@H](OC(=O)C23CCC(C)(C(=O)O2)C3(C)C)[C@H]1OC(=O)C12CCC(C)(C(=O)O1)C2(C)C", "strain": "IIIB", "value": ">100 µg/mL"}
{"compound": "O=C(Nc1ccc(Br)cc1C(=O)O)c1cncc(C(=O)Nc2ccc(Br)cc2C(=O)O)c1", "value": ">100 µg/mL"}
{"compound": "CCCCCCCC/C=C/CCCCCCCCCCCCCC", "value": "4.8 µM"}
{"compound": "O=C1CSC(c2c(Cl)cccc2Cl)N1c1nc(-c2ccccc2)cc(-c2ccccc2)n1", "method": "absorbance", "value": "~10 µg/mL"}
{"compound": "CCc1cn([C@H]2CC[C@@H](COP(=O)(O)OP(=O)(O)OP(=O)(O)O)O2)c(=O)[nH]c1=O", "value": "0.108 µM"}
{"compound": "CCNc1nc(Nc2ccc(C#N)cc2F)nc(Oc2ccc3cccc(Cl)c3c2)n1", "method": "RT activity / fluorescence", "value": "1.618 µM"}
{"compound": "CCc1c(Cc2c(Cl)cccc2Cl)nc(SC/C=C/c2ccc([N+](=O)[O-])cc2)[nH]c1=O", "method": "nucleotide incorporation / radiometric", "value": "25 µM"}
{"compound": "C=CNc1nc(Nc2ccc(C#N)cc2F)nc(Oc2ccc3cccc(Br)c3c2)n1", "method": "RT activity / fluorescence", "value": "1.173 µM"}
{"compound": "O=C(O)CNC(=O)c1ccc(NC(=O)CSc2nnc(Br)n2-c2ccc(C3CC3)c3ccccc23)c(Cl)c1", "changes": "RT-Y188L", "method": "nucleotide incorporation / radiometric", "value": "0.05–0.1 µM"}
{"compound": "Cc1cn([C@H]2C[C@H](N=[N+]=[N-])[C@@H](COP(=O)(O)C(F)(F)P(=O)(O)OP(=O)(O)c3ccccc3)O2)c(=O)[nH]c1=O", "method": "fluorescence", "value": ">0.5 µM"}
{"compound": "CCN1c2ncc(CCOc3ccc(-c4csc(C(=O)O)c4)cc3C)cc2C(=O)N(C)c2cccnc21", "strain": "IIIB", "changes": "RT-K103N Y181C", "method": "nucleotide incorporation / radiometric", "value": "<0.05 µM"}
{"compound": "CC1=C(C#C/C(C)=C/C=C/C(C)=C/C=C/C=C(C)/C=C/C=C(\\C)C(=O)C[C@@]23O[C@]2(C)C[C@@H](O)CC3(C)C)C(C)(C)CC(O)C1", "method": "nucleotide incorporation / radiometric", "value": "27.6 µM"}
{"compound": "Cc1cc(S(N)(=O)=O)ccc1NC(=O)COc1ccccc1C(=O)c1cc(Cl)cc(C#N)c1", "strain": "NNRTI-resistant", "changes": "RT-K103N", "method": "fluorescence", "value": "0.0106 µM"}
{"compound": "N#C/C=C/c1cc(Br)cc(Oc2ccc(Cl)cc2OCCn2ccc(=O)[nH]c2=O)c1", "method": "RT activity", "value": "0.03 µM"}
{"compound": "C=CNc1nc(Nc2ccc(C#N)cc2F)nc(Oc2ccc3cccc(Cl)c3c2)n1", "method": "RT activity / fluorescence", "value": "1.98 µM"}
{"compound": "Cc1cn(C2CC(N=[N+]=[N-])C(COC(C(=O)O)P(=O)(O)OP(=O)(O)OP(=O)(O)O)O2)c(=O)[nH]c1=O", "method": "nucleotide incorporation / radiometric", "value": "46 µg/mL"}
{"compound": "COc1ccc(-c2c3nc(c(-c4ccc(OC)cc4)c4ccc([nH]4)c(-c4ccc(OC)cc4)c4nc(c(-c5ccc(OC)cc5)c5ccc2[nH]5)C=C4)C=C3)cc1", "method": "nucleotide incorporation", "value": ">100 µM"}
{"compound": "Cc1ccc(-n2c(SCC(=O)Nc3ccc(C(=O)O)cc3Cl)nnc2C(F)F)c2c1CCCC2", "changes": "RT-Y181C", "method": "nucleotide incorporation / radiometric", "value": "<0.05 µM"}
{"compound": "CCCNc1nc(Nc2ccc(C#N)cc2F)nc(Oc2ccc3cccc(Cl)c3c2)n1", "method": "RT activity / fluorescence", "value": "4.911 µM"}
{"compound": "COC(=O)C(OCC1OC(n2cc(C)c(=O)[nH]c2=O)CC1N=[N+]=[N-])P(=O)(O)O", "method": "nucleotide incorporation / radiometric", "value": ">100 µg/mL"}
{"compound": "CC(C)=CCOc1cc(NC(=S)c2ccoc2C)ccc1Cl", "changes": "RT-Y181I", "value": "9.5 µM"}
{"compound": "O=C(O)CCNC(=O)c1ccc(NC(=O)CSc2nnc(Br)n2-c2ccc(C3CC3)c3ccccc23)c(Cl)c1", "changes": "RT-Y188L", "method": "nucleotide incorporation / radiometric", "value": ">0.1 µM"}
{"compound": "COC(=O)c1cc2cc(CCc3cc4c(o3)C(=O)c3c(O)c(OC)cc(OC)c3C4=O)c(O)c(O)c2c(=O)o1", "value": "116 µM"}
{"compound": "CCc1ccc(-n2c(Br)nnc2SCC(=O)Nc2ccc(C(=O)NCC(=O)OC)cc2Cl)c2ccccc12", "method": "nucleotide incorporation / radiometric", "value": "<0.05 µM"}
{"compound": "CC(C)=CCOc1cc(NC(=S)c2ccoc2C)ccc1Cl", "changes": "RT-W229Y", "method": "nucleotide incorporation", "value": "0.48 µM"}
{"compound": "O=C(CC1Nc2ccccc2S(=O)(=O)n2cccc21)OCc1ccc(Cl)cc1", "strain": "IIIB", "method": "RT activity", "value": "32 µM"}

ICn is the concentration giving n% inhibition. Two numbers with a dash give a range or band.